Where two headings read alike, the source gives them in different places.
Tests used:
[1] = target: T1, BrmGRX (Brucella melitensis, UniProt Q8YJA2, C70S); conditions: 0.5 mM fragment, 10 µM protein, hit: Rel. STD% ≥5% downfield and/or ≥10% upfield; for STD screening result (set of binders / hit class): BrmGRX versus hGRX1; for MaxRel.STD BrmGRX: 6.2 °C
[2] = target: T1, BrmGRX; conditions: 0.5 mM each fragment in mixture, 10 µM BrmGRX
[3] = target: T1, BrmGRX; conditions: for Binding to BrmGRX monitored via 15N-HSQC: ambient temperature, zero NMR time, pH 6.5; for Binding to BrmGRX at lower pH: pH of 4.5; for Size of CSPs against BrmGRX (15N-HSQC): RK207 analogs: 2 mM fragment, 0.25 mM 15N BrmGRX
[4] = target: T1, BrmGRX; conditions: for CSPs at the zero time-point / Time for the reaction to run to completion: five-fold excess of compound; for Time for the reaction to run to completion: 25 °C
[5] = target: T1, BrmGRX; conditions: 4:1 compound to protein, 1.2 mM compound, 0.3 mM GRX, 12% DMSO, 4 days; not completely reproducible
[6] = target: T1, BrmGRX; conditions: BrmGRX versus hGRX1

Nc1ccccc1N1CCNCC1 [RK155]
STD screening result (set of binders / hit class) [1]: Non-Hits
trNOE binding result, BrmGRX [2]: did not bind

COCc1cc(=O)oc2cc(N)ccc12 [RK411]
MaxRel.STD BrmGRX [1]: 4.2%
STD screening result (set of binders / hit class) [1]: hGRX1 selective

CC1(C)Cc2cccc(CO)c2O1
STD screening result (set of binders / hit class) [1]: Non-Hits

COC(=O)c1ccc(-n2ccnc2)cc1
Binding to BrmGRX monitored via 15N-HSQC [3]: did not bind

COC(=O)c1cccc2cc[nH]c12 [RK028]
MaxRel.STD BrmGRX [1]: 28.3%
STD screening result (set of binders / hit class) [1]: Non-specific

O=C(O)c1ccc(-n2cncn2)cc1
Binding to BrmGRX at lower pH [3]: do not bind

O=C(O)c1ccc(-n2ccnc2)cc1
Binding to BrmGRX monitored via 15N-HSQC [3]: found to bind

OCc1cc(-c2cccs2)[nH]n1 [RK126]
MaxRel.STD BrmGRX [1]: 20.7%
STD screening result (set of binders / hit class) [1]: Non-specific

acrylamide
Time for the reaction to reach completion ([4]; five-fold excess of unlinked acrylamide, same experimental conditions): more than ten
Inhibition of BrmGRX activity in HED assay [5]: Little reduction in activity

C=CC(=O)NCc1ccn(-c2ccc(C(=O)O)cc2)c1
CSPs at the zero time-point [4]: many residues that were associated with the unmodified RK207 binding site showed CSPs
Time for the reaction to run to completion [4]: 168 to 192 h

COCc1cc(=O)oc2cc(O)c(Cl)cc12 [RK450]
MaxRel.STD BrmGRX [1]: 2.7%
STD screening result (set of binders / hit class) [1]: hGRX1 selective

O=C(O)c1ccc(-n2cccc2)cc1 [RK207]
MaxRel.STD BrmGRX [1]: 5.7%
STD screening result (set of binders / hit class) [1]: BrmGRX selective
Size of CSPs against BrmGRX (15N-HSQC) [3]: maximum CSPs
Binding to BrmGRX at lower pH [3]: do not bind
trNOE binding result, BrmGRX [2]: selective for BrmGRX

Nc1ccc(-n2cncn2)cc1
Size of CSPs against BrmGRX (15N-HSQC) [3]: weaker CSPs

Nc1ccc(CN2CCOCC2)cc1 [RK428]
MaxRel.STD BrmGRX [1]: 0.5%
STD screening result (set of binders / hit class) [1]: Non-binders

C=CC(=O)NCc1ccn(-c2ccc(C(=O)OC)cc2)c1 [compound 5, Methyl 4-(3-(Acrylamidomethyl)-1H-pyrrol-1-yl)benzoate]
CSPs at the zero time-point [4]: no CSPs observed for any residues
Time for the reaction to run to completion [4]: less than 24 h

COC(=O)c1ccc(-n2ccc(CN)c2)cc1
Binding to BrmGRX monitored via 15N-HSQC [3]: ineffective

O=C(O)c1ccc(-n2cccn2)cc1
Binding to BrmGRX at lower pH [3]: do not bind

O=C(O)c1ccc(-c2cnco2)cc1 [RK036]
MaxRel.STD BrmGRX [1]: 1.3%
STD screening result (set of binders / hit class) [1]: Non-binders

Cn1nc(C(=O)O)cc1-c1ccccc1 [RK246]
MaxRel.STD BrmGRX [1]: 20.6%
STD screening result (set of binders / hit class) ([1]; listed as RK 246): BrmGRX Hit
Selectivity for BrmGRX over hGRX1 on the basis of HSQC-monitored Kd [6]: no significant selectivity
trNOE binding result, BrmGRX [2]: selective for BrmGRX

COC(=O)c1scc(C)c1N
STD screening result (set of binders / hit class) [1]: Non-Hits

OCc1ccc(-c2ccco2)cc1
trNOE binding result, BrmGRX [2]: selective for BrmGRX

Nc1ccc(CN2CCS(=O)(=O)CC2)cc1
STD screening result (set of binders / hit class) [1]: Non-Hits

Reference: article PMC6274284 (Molecules, 2016)
